Assay results taken from paper PMC3764826, “Bpur, the Lyme Disease Spirochete's PUR Domain Protein”.
Construct, isoform or probe ends are uncertain for at least one entry. For some of these results: Tags and fusion partners may be left off the protein sequences shown.

How the values were obtained:
Assay in all cases: EMSA
[1] = biological target: Bpur-Q75A (Borrelia burgdorferi B31) (UniProt O51076); details: EMSA: 50 mM Tris pH 7.5, 25 mM KCl, 1 mM MgCl2, 100 nM DTT, 10% glycerol, 0.01% Tween 20, 0.1% PMSF; temperature not stated; RNA/ssDNA probes preheated at 56 C; recombinant protein; residues 1-122; label: 5' biotin; single-stranded DNA
[2] = biological target: Bpur-E63A/S64A (Borrelia burgdorferi B31) (UniProt O51076); details: EMSA: 50 mM Tris pH 7.5, 25 mM KCl, 1 mM MgCl2, 100 nM DTT, 10% glycerol, 0.01% Tween 20, 0.1% PMSF, temperature not stated, RNA/ssDNA probes preheated at 56 C, recombinant protein, residues 1-122
[3] = biological target: T1, Bpur-ΔN del1-28 (Borrelia burgdorferi B31) (UniProt O51076); details: EMSA: 50 mM Tris pH 7.5, 25 mM KCl, 1 mM MgCl2, 100 nM DTT, 10% glycerol, 0.01% Tween 20, 0.1% PMSF; temperature not stated; RNA/ssDNA probes preheated at 56 C; recombinant protein; residues 29-122; label: 5' biotin
T1 sequence (looked up): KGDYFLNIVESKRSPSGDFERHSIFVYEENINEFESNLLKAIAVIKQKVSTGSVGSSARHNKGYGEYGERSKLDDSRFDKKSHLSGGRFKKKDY

Q: With “AATGGAGAGATTTTGGGGAGTTGTTTAAAATTACATTTGCGTTTTGTTAAAATG [Bio-sense-ssDNA]” as the sequence, how does the Kd [1] read?
A: 279 nM

Q: With “AATGGAGAGATTTTGGGGAGTTGTTTAAAATTACATTTGCGTTTTGTTAAAATG (double strand) [Bio-dsDNA]” as the sequence, how does the Kd ([2]; label: 5' biotin (one strand)) read?
A: 137 nM

Q: Which results are given for “AAUGGAGAGAUUUUGGGGAGUUGUUUAAAAUUACAUUUGCGUUUUGUUAAAAUG [Bio-sense-RNA]”?
A: Kd ([2]; label: 5' biotin): 15 nM; Kd [3]: 12 nM
